A mixed list of measured activities; the numbers were collected in NIAID ChemDB.

Shared fields: whole-cell or culture tests; species: HIV-1; endpoint: fold resistance

Fold resistance: result on the changed form divided by that on wild type. Conditions beyond the fields shown may differ between rows. An empty or dashed field is not shown.

compound,strain,mutations,cell line,method,value
CCc1c(OC#CC2CC2)c2cc(F)ccc2[nH]c1=O,-,RT-K103N,MT-4,-,13.3
Cc1cc(Cl)cc(C(=O)c2cc(Cl)ccc2OCC(=O)Nc2ccc(S(N)(=O)=O)cc2C)c1,HXB2,RT-V106I,HeLa + HELA CD4+,β-galactosidase,~0.1
CCc1c(OCC2CCC2)c2cc(F)ccc2[nH]c1=O,NNRTI-resistant (RT K103N G190A),RT-K103N G190A,HeLa + HeLa-MAGI,β-galactosidase,12.36
Cc1cc(C#N)cc(C)c1Oc1nc(Nc2ccc(C#N)cc2)ncc1SCC(N)=O,-,E138K,MT-4,MTT,1.8
CCCc1c(SCC2CCC2)c2cc(F)ccc2[nH]c1=O,Nevirapine-resistant (RT Y181C),RT-Y181C,MT-4,-,2.71
CS(=O)(=O)Nc1ccc(NC(=O)COc2ccc(Cl)cc2C(=O)c2ccccc2)cc1,HXB2 (RT-K103N Y181C) Recombinant,RT-K103N Y181C,HeLa + HELA CD4+,β-galactosidase,~100
Cc1cc(C#N)cc(C)c1Oc1nc(Nc2ccc(C#N)cc2)ncc1SCC(=O)NC1CCN(C(=O)OC(C)(C)C)CC1,-,F227L V106A,MT-4,MTT,43.5
C=CCO/N=C/c1cc(NC(=S)c2ccoc2C)ccc1Cl,NL4-3,RT-K101E,CEM + CEM-SS,cytopathic effect / XTT,129
Cc1cc(C#N)cc(C)c1Oc1nc(Nc2ccc(C#N)cc2)ncc1SCC(=O)NCc1ccc(O)cc1,-,Y181C,MT-4,MTT,4.9
COc1cc2c(cc1Cc1cccc(Cl)c1F)c(=O)c(C(=O)O)cn2[C@H](CO)C(C)C,NL4-3,L102F,MT-4,luminescence,1
Cc1c(OCC2CCC2)c2cc(F)ccc2[nH]c1=O,NNRTI-resistant (RT K103N V108I),RT-K103N V108I,HeLa + HeLa-MAGI,β-galactosidase,>3.28
Cc1ccc(C2CC2)c(-c2ccc3c(c2)CCCO3)c1[C@H](OC(C)(C)C)C(=O)O,NL4-3,INSTI-resistant (IN-Q148H),MT-4,luminescence,1
C[C@@H]1CCO[C@H]2Cn3cc(C(=O)NCc4ccc(F)cc4F)c(=O)c(O)c3C(=O)N12,NL4-3,M50I,CBMC,RT activity,1
Cc1occc1C(=S)Nc1ccc(Cl)c(C(=O)OCC2CC2)c1,NL4-3,RT-K101E,CEM + CEM-SS,cytopathic effect / XTT,18
CC(C)c1c(OCC2CCC2)c2cnccc2[nH]c1=O,Nevirapine-resistant (RT Y181C),RT-Y181C,MT-4,-,32
O=C1Nc2ccc(Cl)cc2[C@@](C#CC2CC2)(C(F)(F)F)O1,-,V106A/F227C,MT-4,-,33
Cc1occc1C(=S)Nc1ccc(Cl)c(C(=O)OC(C)C)c1,4xAZT(RT-D67N K70R T215Y K219Q),RT-D67N K70R T215Y K219Q,CEM + CEM-SS,cytopathic effect / XTT,1
Cc1cc(C#N)cc(C(=O)c2cc(Cl)ccc2OCC(=O)Nc2cnc(S(N)(=O)=O)cc2C)c1,HXB2,RT-K103N,HeLa + HELA CD4+,β-galactosidase,~1
CN(C)C1=C(C#N)/C(=C2/C(C#N)=C(N(C)C)N(c3ccc([N+](=O)[O-])cc3)c3c2n(C)c2ccccc32)c2c(c3ccccc3n2C)N1c1ccc([N+](=O)[O-])cc1,ddI-resistant (RT-K65R),RT-K65R,CEM + CEM-SS,cytopathic effect / XTT,0.753
C=CCNC(=O)CSc1cnc(Nc2ccc(C#N)cc2)nc1Oc1c(C)cc(C#N)cc1C,-,F227L V106A,MT-4,MTT,53.3
CC(C)c1c(SCC2CCC2)c2cc(F)ccc2[nH]c1=O,Nevirapine-resistant (RT Y181C),RT-Y181C,MT-4,-,3.09
Cc1cc(C#N)cc(C(=O)c2cc(Cl)ccc2OCC(=O)Nc2ccc(OCCCN3CC=CC3)cc2C)c1,HXB2,RT-V108I,HeLa + HELA CD4+,β-galactosidase,~1
Nc1nc(NC2CC2)c2ncn([C@H]3CO[C@@H](CO)O3)c2n1,HXB2(RT-K65R) Recombinant,RT-K65R,MT-2,RT activity,1.9
Cc1cc(C#N)cc(C)c1Oc1nc(Nc2ccc(C#N)cc2)ncc1SCC(=O)NCCN1CCN(C(=O)OC(C)(C)C)CC1,-,RES056,MT-4,MTT,3.7
Nc1ncnc2c1ncn2[C@@H]1O[C@H](CO)[C@H]1CO,HXB2(RT-V75I) Recombinant,RT-V75I,MT-2,RT activity,4.86
CC=CCOc1cc(NC(=S)c2ccoc2C)ccc1OC,NL4-3,RT-A98G,CEM + CEM-SS,cytopathic effect / XTT,1
CC(C)[C@H](NC(=O)OCc1ccccn1)C(=O)N[C@@H](Cc1ccccc1)[C@@H](O)C[C@H](Cc1ccccc1)NC(=O)OCc1cccnc1,NL4-3,PR-L10R L63P V82T,MT-4,p24,3.75
CCCc1cc(=O)oc2c3c(c4c(c12)OC(C)(C)CC4)O[C@H](C)[C@@H](C)C3=O,-,RT-T139I,-,cytopathic effect / XTT,>68
Cc1cc(C#N)cc(C)c1Oc1nc(Nc2ccc(C#N)cc2)ncc1SCC(=O)NCC1CCCO1,-,Y181C,MT-4,MTT,6.5
CCCc1c(OC2CCCC2)c2cc(C)ccc2[nH]c1=O,Nevirapine-resistant (RT Y181C),RT-Y181C,MT-4,-,5.81
Cc1cc(C#N)cc(C(=O)c2ccccc2OCC(=O)Nc2ccc(S(N)(=O)=O)cc2C)c1,-,RT-K103N P225H,HeLa MAGI + HeLa,β-galactosidase,10
CCCc1c(OCC2CC2)c2cc(Cl)ccc2[nH]c1=O,Nevirapine-resistant (RT Y181C),RT-Y181C,MT-4,-,15.3
O=C(O[C@@H]1[C@H](OC(=O)c2ccccc2)[C@@H](CO)O[C@H]1n1cnc2c(N(C(=O)c3ccccc3)C(=O)c3ccccc3)ncnc21)c1ccccc1,NL4-3,M184V-M41L-L210W-T215Y,HeLaP4,β-galactosidase,0.58
COCCNC(=O)CSc1cnc(Nc2ccc(C#N)cc2)nc1Oc1c(C)cc(C#N)cc1C,-,F227L V106A,MT-4,MTT,40
CCCCCCCCCCCCCCCC(=O)Nc1ccn([C@H]2CC[C@@H](COP(=O)(O)O[C@H]3C[C@H](n4cc(C)c(=O)[nH]c4=O)O[C@@H]3CO)O2)c(=O)n1,OC-resistant RT L100I,Oxathiin carboxanilide-resistant RT L100I,CEM + CEM-SS,cytopathic effect / XTT,3.16
Cc1occc1C(=S)Nc1ccc(Cl)c(/C=N/OC(C)(C)C)c1,4xAZT/L100I(RT-D67N K70R T215Y K219Q L100I),RT-D67N K70R L100I T215Y K219Q,CEM + CEM-SS,cytopathic effect / XTT,12.5
Cc1cc(C#N)cc(C)c1Oc1nc(Nc2ccc(C#N)cc2)ncc1SCC(=O)NCCN1CCOCC1,-,E138K,MT-4,MTT,3.8
Cc1ccc(C2CC2)c(-c2ccc3c(c2C)CCCO3)c1[C@H](OC(C)(C)C)C(=O)O,NL4-3,PI-resistant ARP-11807 (L33F/I47A/L63P/A71V/V82A),MT-4,luminescence,1
CCC(=O)c1ccc(F)c([C@@H]2C[C@@H]2NC(=O)Nc2ccc(C#N)cn2)c1O,LAI,NNRTI-resistant (RT N348I),TZM-bl,β-galactosidase / luminescence,1.5

Repeating the first 4 entries:

| compound | strain | mutations | cell line | method | value |
|---|---|---|---|---|---|
| CCc1c(OC#CC2CC2)c2cc(F)ccc2[nH]c1=O | - | RT-K103N | MT-4 | - | 13.3 |
| Cc1cc(Cl)cc(C(=O)c2cc(Cl)ccc2OCC(=O)Nc2ccc(S(N)(=O)=O)cc2C)c1 | HXB2 | RT-V106I | HeLa + HELA CD4+ | β-galactosidase | ~0.1 |
| CCc1c(OCC2CCC2)c2cc(F)ccc2[nH]c1=O | NNRTI-resistant (RT K103N G190A) | RT-K103N G190A | HeLa + HeLa-MAGI | β-galactosidase | 12.36 |
| Cc1cc(C#N)cc(C)c1Oc1nc(Nc2ccc(C#N)cc2)ncc1SCC(N)=O | - | E138K | MT-4 | MTT | 1.8 |